{"source": "paper PMC9411558", "about": "“Toxicity mechanisms of aflatoxin M1 assisted with molecular docking and the toxicity-limiting role of trans-resveratrol” (Scientific Reports, 2022)", "test_system": "DNA", "type": "binding, mice"}
{"smiles": "COc1cc2c(c3oc(=O)c4c(c13)CCC4=O)C1(O)C=COC1O2", "note": "(stereo not shown) [AFM1, Aflatoxin M1]", "values": [{"measurement": "wavelength after hypsochromic shift of the DNA UV spectrum", "value": "approximately 240 nm"}]}
